Measured values from several laboratories, pooled; numbers as filed in NIAID ChemDB.

All rows: growth or infection tests; species: Candida albicans; read-out: MIC

An empty or dashed field is not shown. Neighbouring rows are from separate reports.

| structure | strain | method | setting | result |
|---|---|---|---|---|
| COc1ccc(C[C@H](NC(=O)CN)C(=O)N[C@H]2[C@@H](O)[C@H](n3cnc4c(N)ncnc43)O[C@@H]2C(=O)O)cc1 | FP633 |  |  | >100 µg/mL |
| Fc1ccc(CCCCn2c3c(c4cc(F)ccc42)CNCC3)cc1 | 579A |  |  | 1.25 µg/mL |
| C[C@H]1[C@H](O)[C@@H](C)/C=C/C=C/C=C/C=C/C=C/C=C/C=C/[C@H](O[C@@H]2O[C@H](C)[C@@H](O)[C@H](N)[C@@H]2O)C[C@@H]2O[C@](O)(C[C@@H](O)C[C@@H](O)CC[C@H](O)[C@@H](O)C[C@@H](O)CC(=O)O[C@H]1C)C[C@H](O)[C@H]2C(=O)O | ATCC64547 |  |  | 0.25 µg/mL |
| Clc1ccc(/C(Cn2ccnc2)=N/OCc2ccccc2)cc1 | PR1 |  |  | 32 µg/mL |
| N=C(N)c1ccc2nc(-c3ccc(-c4nc5ccc(C(=N)N)cc5[nH]4)[nH]3)[nH]c2c1 | Isolate 3028 fluconazole-resistant |  |  | 0.78 µg/mL |
| Clc1ccc(COC(Cn2ccnc2)c2ccc(Cl)cc2Cl)c(Cl)c1 | 10 isolates | broth dilution | pH 7 | 0.125 µg/mL |
| CCCCCCCCCCSC[N+](C)(C)CCCCCCCC | ATCC 10231 |  |  | 132 µM |
| CC(=O)N1CCN(c2ccc(OC[C@H]3CO[C@](Cn4ccnc4)(c4ccc(Cl)cc4Cl)O3)cc2)CC1 | KB |  |  | >4 µg/mL |
| CCn1c2ccccc2c2cnn(-c3ccc(C)c(C)c3)c(=O)c21 |  | broth dilution |  | 250 µg/mL |
| Fc1ccc(/C(Cn2ccnc2)=N/OCc2ccccc2)cc1 | CA6 |  |  | 32 µg/mL |
| CCCCCCCCCCCC[N+](C)(C)COC1CCCCCCCCCCC1 | ATCC 10231 |  |  | 26.9 µM |
| COc1ccc(C[C@H](NC(=O)[C@@H](N)Cc2ccc(OC)cc2)C(=O)N[C@H]2[C@@H](O)[C@H](n3cnc4c(N)ncnc43)O[C@@H]2C(=O)O)cc1 | FP633 |  |  | >100 µg/mL |
| Clc1nnc2c(cnc3ccccc32)n1 | M-3 |  |  | ≤10 µg/mL |
| CCCC(O)C/C=C\C=C\C(=O)OC[C@H]1O[C@@H](O[C@@H]2[C@H](OC(=O)/C=C/C=C/CC(O)/C(C)=C/C=C/CCC(C)CC)[C@@H](O)[C@]3(OCc4cc(O)cc(O)c43)O[C@@H]2CO)[C@H](O)[C@@H](O)[C@H]1O | MY1585 |  |  | 1 µg/mL |
| Cc1c(Cl)[n+](=O)c2cc(Cl)ccc2n1[O-] | Clinical isolate 12 |  |  | 7.8 µg/mL |
| O=C(/C=C/c1cc(O)ccc1O)c1ccccc1 | SDAU4 |  |  | 100 µg/mL |
| CCC(C)n1ncn(-c2ccc(N3CCN(c4ccc(OC[C@H]5CO[C@](Cn6cncn6)(c6ccc(Cl)cc6Cl)O5)cc4)CC3)cc2)c1=O | 10 isolates | broth dilution | pH 7 | 0.03 µg/mL |
| c1ccc(CO/N=C(/Cn2ccnc2)c2ccccc2)cc1 | CA7 |  |  | 128 µg/mL |
| CCOc1cc2c(cc1F)n([O-])c(C)c(Cl)[n+]2=O | Clinical isolate 21 |  |  | 31.25 µg/mL |
| Clc1ccc(/C(Cn2ccnc2)=N\OCc2ccccc2)cc1 | 5M |  |  | 32 µg/mL |
| CN(CCCC#CC(C)(C)C)c1cccc2c1CCC(=O)N2 | Clinical isolate 7 |  |  | 31.25 µg/mL |
| COc1cc(O)c2c(c1)C(=O)c1c(cc3c(c1O)-c1c(cc(C)c(C(=O)NC(C)C(=O)O)c1O)[C@H](OC1OC(C)C(N(C)C)C(OC4OCC(O)C(O)C4O)C1O)[C@H]3O)C2=O | ATCC 38247 (amphotericin B-resistant) |  |  | 1.6 µg/mL |
| CCc1ccccc1-n1ncc2c([nH]c3ccccc32)c1=O |  | broth dilution |  | 250 µg/mL |
| CCCCCCCCOC[N+](C)(C)CCCCCCCC | ATCC 10231 |  |  | 298 µM |
| CSCCC(N)C(=O)N[C@H]1[C@@H](O)[C@H](n2cnc3c(N)ncnc32)O[C@@H]1C(=O)O | FP633 |  |  | 1.6 µg/mL |
| CCCCCCCCCCCC[N+](C)(C)COCCCCCCCC | ATCC 10231 |  |  | 128 µM |
| Nc1ncnc2c1ncn2[C@@H]1O[C@H](C(=O)O)[C@@H](NC(=O)[C@H](N)CSCc2ccc(CN3CCOCC3)cc2)[C@H]1O | FP633 |  |  | 25 µg/mL |
| OCCNc1nnc2c(cnc3ccccc32)n1 | VM-81 |  |  | 50 µg/mL |
| Cc1c(Sc2ccccc2)[n+](=O)c2cc(C(F)(F)F)ccc2n1[O-] | Clinical isolate 11 |  |  | 62.5 µg/mL |
| O=C(/C=C/c1ccc(O)cc1O)c1ccccc1 | SDAU3 |  |  | 75 µg/mL |
| CCn1c2ccccc2c2c(N)n[nH]c(=O)c21 |  | broth dilution |  | 250 µg/mL |
| COC(=O)[C@H]1[C@@H]2C[C@@H](O[C@@H]3O[C@H](C)[C@@H](O)[C@H](N)[C@@H]3O)/C=C/C=C/C=C/C=C/C=C/C=C/C=C/[C@H](C)[C@@H](O)[C@H](C)[C@H](C)OC(=O)C[C@H](O)C[C@H](O)[C@@H](O)CC[C@H](O)C[C@H](O)C[C@](O)(C[C@@H]1O)O2 | 10 isolates | broth dilution | pH 5 | 4 µg/mL |
| CCC(C)CC(C)CCCCCCCCC(=O)NC1C[C@H](O)[C@@H](O)NC(=O)[C@@H]2[C@@H](O)[C@@H](C)CN2C(=O)[C@H]([C@H](O)CC(N)=O)NC(=O)[C@H](C(O)[C@H](O)c2ccc(O)cc2)NC(=O)[C@@H]2C[C@@H](O)CN2C(=O)[C@H]([C@@H](C)O)NC1=O | MY1750 |  |  | 1 µg/mL |
| Clc1ccccc1C(c1ccccc1)(c1ccccc1)n1ccnc1 | 10 isolates | broth dilution | pH 7 | 0.03 µg/mL |
| O[C@](Cn1cncn1)(Cn1cnc(/C=C/c2ccc(OCC(F)(F)C(F)F)cc2)n1)c1ccc(F)cc1F | Isolate 04-32 |  |  | 0.5 µg/mL |
| Nc1ncnc2c1ncn2[C@@H]1O[C@H](C(=O)O)[C@@H](NC(=O)[C@@H](N)Cc2ccc(OCC(=O)O)cc2)[C@H]1O | FP633 |  |  | >100 µg/mL |
| Nc1n[nH]c(=O)c2[nH]c3ccccc3c12 |  | broth dilution |  | 250 µg/mL |
| Nc1nc(CC(N)C(=O)N[C@H]2[C@@H](O)[C@H](n3cnc4c(N)ncnc43)O[C@@H]2C(=O)O)ns1 | FP633 |  |  | 50 µg/mL |
| O=c1c2[nH]c3ccccc3c2cnn1-c1ccc(Br)cc1 |  | broth dilution |  | 250 µg/mL |

For reference, 2 entries again:

Cc1c(Sc2ccccc2)[n+](=O)c2cc(C(F)(F)F)ccc2n1[O-] ; strain: Clinical isolate 11 ; result: 62.5 µg/mL
c1ccc(CO/N=C(/Cn2ccnc2)c2ccccc2)cc1 ; strain: CA7 ; result: 128 µg/mL